We go through one substance from article PMC12202928, “Bidirectional interdomain crosstalk in a Porphyromonas gingivalis chimeric enzyme coordinates catalytic synergy for aromatic amino acid biosynthesis” (Frontiers in Microbiology, 2025).

Common to all, as to experiment: purified protein
One data set concerns C=C(OP(=O)(O)O)C(=O)O. To be noted: 750 μM E4P, 100 μM MnSO4, 50 mM BTP pH 7.4, 37°C.
Data set [1] has as its system C=C(O[C@@H]1C=C(C(=O)O)C=C[C@H]1O)C(=O)O. The note with it: 50 mM BTP pH 7.4, 37°C.
Data set [2] relates to O=C[C@H](O)[C@H](O)COP(=O)(O)O. The note with it: 750 μM PEP, 100 μM MnSO4, 50 mM BTP pH 7.4, 37°C.

One may read the Km as the substrate concentration at which the rate is half of its maximum. What is called kcat is the number of substrate molecules converted per active site and unit of time at saturation. Broadly, the kcat/Km is the turnover number divided by the Michaelis constant.

Turning to “PgiDAH7PS-CM (Porphyromonas gingivalis ATCC 33277; E269A/E270A/E287A/R291A)”, in the data set on C=C(OP(=O)(O)O)C(=O)O, the Km was found to be 436 ± 46 µM, the kcat was 1.28 ± 0.11 s⁻¹ and the catalytic efficiency (kcat/Km) stood at 2900 M⁻¹ s⁻¹. Besides, in data set [1], the Michaelis constant (Km) came out at 81.1 ± 6.5 µM, the kcat was determined as 1.04 s⁻¹ and the kcat/Km stood at 13000 M⁻¹ s⁻¹. Besides, in data set [2], the Km was determined as 511 ± 43 µM, the kcat is 1.28 ± 0.11 s⁻¹ and the kcat/Km turned out to be 2500 M⁻¹ s⁻¹.
